Results from patent US20150119328A1.
Several values for one entry are separate records, joined by “and”; a condition that tells them apart may be missing. Equal entries are not always repeated.

Key:
[1] = biological target: Guanylate cyclase C (human), P25092
[2] = biological target: Guanylate cyclase C (human), P25092; assay: cell-based or functional assay
[3] = biological target: Guanylate cyclase C (human), P25092; assay: competitive radioligand binding, [125I]-STp displacement on intact T84 cells

B1: Peptide 1 (peptide)
peptide: CCELCCNPACTGCY
modifications: not checked
- Ki [1]: 2.9 nM and 2 nM
- EC50, cGMP response in T84 cells, pH 5 [2]: 13.4 nM
- EC50, cGMP response in T84 cells, pH 8 [2]: 114 nM
- Ratio EC50 pH 8/EC50 pH 5, cGMP response in T84 cells [2]: 8.5
- Ratio Ki pH 8/Ki pH 5 [3]: 0.69
